Experimental data reported in article PMC5749897.

Columns and labels:
Test in all cases: flow cytometry
Details in all cases: read off a plot
A4 = target: A4
HCV1 = target: HCV1
AP33 = target: AP33
AR1A = target: AR1A
AR2A = target: AR2A
AR3A = target: AR3A

Row | Substance | percent of parent (A4) | percent of parent (HCV1) | percent of parent (AP33) | percent of parent (AR1A) | percent of parent (AR2A) | percent of parent (AR3A)
1 | wild-type HCV E1E2 (genotype 1a, strain H77) expression construct with C-terminal V5 epitope tag T519A | 120 % of WT | 98 % of WT | – | – | – | –
2 | wild-type HCV E1E2 (genotype 1a, strain H77) expression construct with C-terminal V5 epitope tag L441A | – | 120 % of WT | 110 % of WT | 100 % of WT | 100 % of WT | –
3 | wild-type HCV E1E2 (genotype 1a, strain H77) expression construct with C-terminal V5 epitope tag W437A | – | – | – | 130 % of WT | 130 % of WT | –
4 | wild-type HCV E1E2 (genotype 1a, strain H77) expression construct with C-terminal V5 epitope tag C503A | – | 110 % of WT | 110 % of WT | – | 110 % of WT | –
5 | wild-type HCV E1E2 (genotype 1a, strain H77) expression construct with C-terminal V5 epitope tag T425A | – | 88 % of WT | 78 % of WT | 105 % of WT | 78 % of WT | 7 % of WT
6 | wild-type HCV E1E2 (genotype 1a, strain H77) expression construct with C-terminal V5 epitope tag F442A | – | 120 % of WT | 96 % of WT | 110 % of WT | 120 % of WT | –
7 | wild-type HCV E1E2 (genotype 1a, strain H77) expression construct with C-terminal V5 epitope tag Y485A | – | 105 % of WT | – | – | 96 % of WT | –
8 | wild-type HCV E1E2 (genotype 1a, strain H77) expression construct with C-terminal V5 epitope tag L438A | – | – | – | 120 % of WT | 120 % of WT | –
9 | wild-type HCV E1E2 (genotype 1a, strain H77) expression construct with C-terminal V5 epitope tag P544A | 85 % of WT | – | – | – | – | –
10 | wild-type HCV E1E2 (genotype 1a, strain H77) expression construct with C-terminal V5 epitope tag N548A | 110 % of WT | 105 % of WT | – | – | – | –
11 | wild-type HCV E1E2 (genotype 1a, strain H77) expression construct with C-terminal V5 epitope tag G436A | – | 85 % of WT | 93 % of WT | 110 % of WT | 80 % of WT | –
12 | wild-type HCV E1E2 (genotype 1a, strain H77) expression construct with C-terminal V5 epitope tag N428A | – | 71 % of WT | 62 % of WT | 130 % of WT | 90 % of WT | –
13 | wild-type HCV E1E2 (genotype 1a, strain H77) expression construct with C-terminal V5 epitope tag Y632A | 85 % of WT | 110 % of WT | – | – | – | –
14 | wild-type HCV E1E2 (genotype 1a, strain H77) expression construct with C-terminal V5 epitope tag D520A | – | 107 % of WT | 100 % of WT | 170 % of WT | 130 % of WT | –
15 | wild-type HCV E1E2 (genotype 1a, strain H77) expression construct with C-terminal V5 epitope tag W549A | 96 % of WT | 88 % of WT | – | – | – | –
16 | wild-type HCV E1E2 (genotype 1a, strain H77) expression construct with C-terminal V5 epitope tag L427A | – | 78 % of WT | 63 % of WT | 110 % of WT | 98 % of WT | –
17 | wild-type HCV E1E2 (genotype 1a, strain H77) expression construct with C-terminal V5 epitope tag G495A | 120 % of WT | – | – | – | – | –
18 | wild-type HCV E1E2 (genotype 1a, strain H77) expression construct with C-terminal V5 epitope tag P545A | 88 % of WT | – | – | – | – | –
